Sequence variants of PSTVd loop 6 after infection

The pool varies loop 6 of the PSTVd intermediate strain in the pattern UNNNCGNNNG; wild type is UGACCGCGAG (upper and lower strand joined, each 5' to 3', the first 5 letters being the upper strand, closing pairs included).

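Three N. benthamiana plants were inoculated with the whole mutant pool. Samples came from the inoculated region at 5 days, the leaf margin at 10 and upper systemic leaves at 12.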

Numbers give reads per thousand; 0 = not seen among the reads, higher = more abundant.
Each value is the mean of three plants.
"Pool" is the share in the plasmid pool used as inoculum, on the same scale.
The inoculated region was read from the minus strand, the other sites from the plus strand.

sequence	pool	inoculated region	leaf margin	systemic leaves
UCCGCGGUGG	0.340	0.0889	0.0155	0
UUCGCGCCCG	0.353	0.101	0	0
UUUCCGCGAG	0.301	0.539	7.86	0.134
UGUCCGAUUG	0.222	0.0957	0	0.00673
UCGACGGGGG	0.105	0.0714	0	0
UCCGCGUCCG	0.118	0.100	0	0
UGAUCGCCGG	0.170	0.0704	0	0
UGUUCGCAUG	0.183	0.125	0	0.00684
UGGCCGCUCG	0.196	0.132	0	0
UACCCGGUGG	0.118	0.0963	0	0
UCUGCGGAGG	0.105	0.114	0	0
UGUCCGAGCG	0.183	0.154	0.00773	0
UCCGCGCUAG	0.131	0.125	0.0247	0
UCUACGUUCG	0.261	0.0775	0.120	0
UAGUCGGGGG	0.0784	0.0827	0	0
UUUUCGCUCG	0.183	0.119	0.00920	0
UUCGCGGGAG	0.248	0.0299	0.0169	0
UCACCGUAGG	0.235	0.0426	0.0155	0
UCCUCGGCUG	0.196	0.0892	0	0
UCCUCUGUGG	0.0131	0	0	0
UAACCGGCUG	0.183	0.0545	0.0247	0
UGUGCGUAGG	0.248	0.0654	0.00773	0
UGUGCGCGAG	0.366	0.282	0.0996	0.0879
UCAGCGGGGU	0.0131	0	0	0
GGACCGCACG	0.0131	0.00579	0	0
UUCUCGUGCG	0.222	0.137	0.00773	0
UACACGACUG	0.301	0.0712	0.00773	0
UCCACGAGAG	0.157	0.0940	0.00773	0.00684
UUUCCGGAAG	0.209	0.0725	0.0155	0
UGUCCGACUG	0.405	0.119	0.00773	0.00599
UCCUCGCGAG	0.196	0.209	0.213	0.00673
UCAUCGUAGG	0.196	0.0652	0.00773	0
UUGCCGUCCG	0.288	0.107	0.0582	0
UUAACGCACG	0.196	0.625	0.0983	0.0196
UGUCCGGUUG	0.170	0.0704	0	0
UGUACGUUAG	0.588	0.149	0.0169	0
UUUUCGCGGG	0.248	0.0768	0	0
UCGCCGUUAG	0.431	0.0885	0	0
UGAACGCAUG	0.144	0.823	0.144	0
UAUGCGAUGG	0.183	0.0708	0.0169	0

The first 3 entries again:

| sequence | pool | inoculated region | leaf margin | systemic leaves |
|---|---|---|---|---|
| UCCGCGGUGG | 0.340 | 0.0889 | 0.0155 | 0 |
| UUCGCGCCCG | 0.353 | 0.101 | 0 | 0 |
| UUUCCGCGAG | 0.301 | 0.539 | 7.86 | 0.134 |

Samples held 36,220 to 57,551 reads, so the smallest values rest on one or two reads.
The authors trace changes outside the varied positions to PCR and sequencing errors or to mutation in the plant; presence does not show that a variant is infectious alone.
For reference, wild type rose from 20.7 per thousand in the pool to 195, 198, 203 (inoculated region), 629, 591, 734 (leaf margin) and 942, 870, 868 (systemic leaves).

The measurements come from Wu et al. 2024 (doi:10.1371/journal.ppat.1012142).